# Data as given in PubChem BioAssay AID1259414 (Drosophila RNAi Screening Center, 2018).
# Assay: 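Fly genes that alter Wolbachia amount inside host cells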 (primary screen)
# System: Drosophila JW18 cells infected with Wolbachia
# Reagents: long dsRNA against Drosophila genes, 0.25 µg dsRNA per well of a 384-well plate
# Time to read-out: 5 days
# Treatment: cells persistently infected with Wolbachia before knock-down; no added drug
# Detection: 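Automated imaging of bacterial rRNA staining divided by host cell count, reported as plate-normalised robust z-score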
# Reading the numbers: Wolbachia per cell robust z: higher = more Wolbachia per host cell than the plate typical
# Hit rule: 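Hit when robust z is 1.5 or more, or -1.5 or less, in at least two of three replicates; excludes dsRNAs with several or no targets, genes not expressed in JW18 and well A1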
# The deposit covers about 24,000 reagents; shown is a random part of those with a known target gene and a result. In the full data, about 1,210 (5%) got an active call. 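Inactive calls also include excluded dsRNAs with several or no targets, genes unexpressed in JW18, and well A1, regardless of score.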 A plus sign joins genes that one reagent is predicted to hit. No sequences are given here.
Gene,amplicon,"Wolbachia per cell robust z, rep 1","Wolbachia per cell robust z, rep 2","Wolbachia per cell robust z, rep 3",Call
Shal (Shaker cognate l),DRSC09625,-1.23,0.203,-0.227,inactive
Shal (Shaker cognate l),DRSC11283,-0.912,-0.28,0.165,inactive
Ttc1 (Tetratricopeptide repeat domain 1),DRSC15016,0.589,-0.291,-0.0591,inactive
Ttc1 (Tetratricopeptide repeat domain 1),DRSC22469,-2.56,0.152,0.465,inactive
Ttc1 (Tetratricopeptide repeat domain 1),DRSC26111,-1.25,0.342,0.0293,inactive
TORIP (Torsin interacting protein),DRSC10104,0.607,-1.59,-0.165,inactive
Sid (Stress induced DNase),DRSC16588,-3.57,-2.99,0.898,active
Sid (Stress induced DNase),DRSC26318,-2.6,-2.42,-0.22,active
RpL10Aa (Ribosomal protein L10Aa),DRSC15518,-0.522,-0.43,-3.07,inactive
CG31248,DRSC22722,-0.88,-1.67,-0.09,inactive
Gr10b (Gustatory receptor 10b),DRSC19477,0.901,0.327,0.606,inactive
Gr10b (Gustatory receptor 10b),DRSC28702,-0.169,0.595,0.314,inactive
Hakai,DRSC02031,-0.485,-0.523,0.242,inactive
Bx42,DRSC17743,4.15,5.09,10.1,active
Bx42,DRSC27666,0.761,-0.978,1.32,inactive
Patr-1 (Protein associated with topo II related - 1),DRSC14159,-8.37,-4.8,-0.689,active
Patr-1 (Protein associated with topo II related - 1),DRSC26481,0.657,-0.426,-0.677,inactive

In a second layout: entries from further up.
RpL10Aa (Ribosomal protein L10Aa) [DRSC15518]: Wolbachia per cell robust z, rep 1 = -0.522; Wolbachia per cell robust z, rep 2 = -0.43; Wolbachia per cell robust z, rep 3 = -3.07; Call = inactive
CG31248 [DRSC22722]: Wolbachia per cell robust z, rep 1 = -0.88; Wolbachia per cell robust z, rep 2 = -1.67; Wolbachia per cell robust z, rep 3 = -0.09; Call = inactive
Gr10b (Gustatory receptor 10b) [DRSC19477]: Wolbachia per cell robust z, rep 1 = 0.901; Wolbachia per cell robust z, rep 2 = 0.327; Wolbachia per cell robust z, rep 3 = 0.606; Call = inactive
Gr10b (Gustatory receptor 10b) [DRSC28702]: Wolbachia per cell robust z, rep 1 = -0.169; Wolbachia per cell robust z, rep 2 = 0.595; Wolbachia per cell robust z, rep 3 = 0.314; Call = inactive
Hakai [DRSC02031]: Wolbachia per cell robust z, rep 1 = -0.485; Wolbachia per cell robust z, rep 2 = -0.523; Wolbachia per cell robust z, rep 3 = 0.242; Call = inactive
Bx42 [DRSC17743]: Wolbachia per cell robust z, rep 1 = 4.15; Wolbachia per cell robust z, rep 2 = 5.09; Wolbachia per cell robust z, rep 3 = 10.1; Call = active
Bx42 [DRSC27666]: Wolbachia per cell robust z, rep 1 = 0.761; Wolbachia per cell robust z, rep 2 = -0.978; Wolbachia per cell robust z, rep 3 = 1.32; Call = inactive

The listing continues:
Gene,amplicon,"Wolbachia per cell robust z, rep 1","Wolbachia per cell robust z, rep 2","Wolbachia per cell robust z, rep 3",Call
CG13494,DRSC04139,-0.591,-0.765,-1.49,inactive
CG13494,DRSC26588,0.635,0.00229,0.972,inactive
CG1983,DRSC15410,-2.06,-0.673,0.0435,inactive
CG6254,DRSC16002,-0.55,-0.695,-0.117,inactive
Hexim (Hexamethylene bisacetamide inducible),DRSC15490,-0.178,0.0753,0.0832,inactive
ana1 (anastral spindle 1),DRSC16079,0.491,1.37,0.509,inactive
ana1 (anastral spindle 1),DRSC21825,-0.581,-0.543,0.141,inactive
ana1 (anastral spindle 1),DRSC30086,-0.0664,-0.441,-0.0279,inactive
CG2961,DRSC18246,-3.36,-0.234,-1.46,inactive
CG2961,DRSC28539,-1.81,-0.977,-2.14,inactive
CG8135 + BBIP1,DRSC16384,1.57,0.886,0.0178,inactive
CG8135 + BBIP1,DRSC26052,1.65,1.65,-1.08,inactive
tbrd-2,DRSC07020,-0.0367,1.27,0.649,inactive
CG31463,DRSC14346,1.3,0.19,-0.0575,inactive
CG31463,DRSC26552,-2.59,-1.75,0.0325,inactive
CG8788,DRSC07267,-0.97,-1.6,-0.11,inactive
CG14017,DRSC02348,-0.194,0.515,0.558,inactive
Or22a (Odorant receptor 22a),DRSC00764,-0.614,-0.628,-0.35,inactive
Or22a (Odorant receptor 22a),DRSC26009,-0.768,0.456,-1.22,inactive
CG14007,DRSC02339,0.995,-4.4,0.823,inactive
CG8141,DRSC16387,-0.199,0.209,0.322,inactive
CG7131,DRSC16203,-2.36,-0.451,-0.238,inactive
CG7131,DRSC29880,0.924,0.314,0.727,inactive
Idgf2 (Imaginal disc growth factor 2),DRSC03350,0.131,-0.0133,-0.112,inactive
Idgf2 (Imaginal disc growth factor 2),DRSC26630,-5.73,-1.36,-1.62,active
Idgf2 (Imaginal disc growth factor 2),DRSC38977,0.604,0.494,-0.49,inactive
CG5167,DRSC15728,-0.508,-0.927,-0.676,inactive
CG15517,DRSC15056,0.261,0.246,-1.8,inactive
CG6154,DRSC15977,-0.383,-0.476,0.378,inactive
CG6154,DRSC28363,0.746,1.04,0.388,inactive
